Laboratory results from patent US20210292393A1 (published 2021).
Where two headings read alike, the source gives them in different places.

B1: anti-SARS-CoV-2 antibody 468 (antibody, V domains shown)
VH: QVQLVESGGGVVQPGRSLRLSCAASGFTFSIYAMHWVRQAPGKGLEWVAVISYDGSNKYYADSVKGRFTISRDNSKNTLYLQMNSLRAEDTAVYYCAGSLPAGSYYYYYGMDVWGQGTTVTVSS
VL: SYELTQPPSVSVSPGQTARITCSGDALPKQYAYWYQQKPGQAPVLVIYKDSERPSGIPERFSGSSSGTTVTLTISGVQAEDEADYYCQSADNSGTYVLFGGGTKLTVL
B2: anti-SARS-CoV-2 antibody 458 (antibody, V domains shown)
VH: QVQLVESGGGVVQPGRSLRLSCAASEFTFATYAMHWVRQAPGKGLEWVALISQDGSNKHYADSVKGRFTISRDNSKNTLYLQMNSLRAEGTAIYYCARESLEAAGPPFDYWGQGTLVTVSS
VL: SYELTQPPSVSVSPGQTATIICSGDKLGEKYASWYQQKPGQSPALVIYQDRKRPSGIPERFSGSNSGNTATLTISGTQAMDEADYYCQAWDSSNSVVFGGGTKLTVP
B3: anti-SARS-CoV-2 antibody 465 (antibody, V domains shown)
VH: QITLKESGPTLVKPTQTLTLTCTFSGFSLSTSGVGVGWIRQPPGKALEWLALIYWDDDKHYSPSLKSRLTITKDTSKNQVVLTMTNMDPVDTATYYCAHMYYDILSGYYYGMDVWGQGTTVTVSS
VL: QSVLTQPPSASGTPGQRVTISCSGSSSNIGSNYVYWYQQLPGTAPKLLIYRNNQRPSGVPDRFSGSKSGTSASLAISGLRSEDEADYYCAAWDDSLSGRWVFGGGTKLTVL
B4: antibody 308 (antibody, V domains shown)
VH: QLQLQESGPGLVKPSETLSLTCSVSGGSISSSSYHWGWIRQPPGKGLEWIGSIYYSGSTYYNPSLKSRVTISVDTSKNQFSLKLRSVTAADTAVYYCAGLRVVITFGGVIPKGGAFDIWGQGTMVTVSS
VL: QSALTQPASVSGSPGQSITISCTGTSSDVGGYNYVSWYQQHPGKAPKLMIYDVSNRPSGVSNRFSGSKSGNTASLTISGLQAEDEADYYCSSYTSSSTVVFGGGTKLTVL
B5: anti-SARS-CoV-2 antibody 493 (antibody, V domains shown)
VH: EVQLVESGGGLIQPGRSLRLSCAASGFTVSITYMSWVRQAPGKGLEWVSLIYSGGSSYYADSVKGRFTISRDNSKNTLYLQMNSLRAEDTAVYYCATTMVRGVIISYYYGMDVWGQGTTVTVSS
VL: QSALTQPASVSGSPGQSITISCTGTSSDVGGYNYVSWYQQHPGKAPKLMIYEVSNRPSGVSNRFSGSKSGNTASLTISGLQAEDEADYYCSSYTSSSTLVFGGGTKLTVL
B6: anti-SARS-CoV-2 antibody 472 (antibody, V domains shown)
VH: EVQLVESGGGLIQPGGSLRLSCAASGFTVSSNYMSWVRQAPGKGLEWVSVIYSGGTTHYADSVKGRFTISRDNSKNTLYLQMNSLRAEDTAVYYCANYGMDVWGQGTTVTVSS
VL: SYELTQPSSVSVSPGQTARITCSGDVLAKKYARWFQQKPGQAPVLVIYKDSERPSGIPERFSGSSSGTTVTLTISGAQVEDEADYYCYSAADKVFGGGTKLTVL
B7: anti-SARS-CoV-2 antibody 482 (antibody, V domains shown)
VH: EVQLVESGGGLVQPGGSLRLSCAASGFTFSSYWMTWVRQAPGKGLEWVANIKQDGSEKYYVDSVKGRFTISRDNAKNSLYLQMNSLRAEDTAVYYCARGVGSWYLGFDYWGQGTLVTVSS
VL: NFMLTQPHSVSESPGKTVTISCTGSSGSIASNYVQWYQQRPGSAPTTVIYEDNQRPSGVPDRFSGSIDSSSNSASLTISGLKTEDEADYYCQSYDGSSYVFGTGTKVTVL
B8: anti-SARS-CoV-2 antibody 467 (antibody, V domains shown)
VH: QVQLVQSGAEVKKPGASVKVSCKASGYTFISYGISWVRQAPGQGLEWMGWISAYNGNTNYAQKLQGRVTMTTDTSTSTAYMELRSLRSDDTAVYYCARGLWPGYYYGSGSYSAFHIWGQGTMVTVSS
VL: QSALTQPPSASGSPGQSVSISCTGTSSDVGGYNYVSWYQQHPGKAPKLMIYEVSKRPSGVPDRFSGSKSGNTASLTVSGLQAEDEADYYCSSYAGSNKVFGGGTKLTVL
B9: antibody 554 (antibody, V domains shown)
VH: QVQLVESGGGVVQPGRSLRLSCAASGFTFSSYAMHWVRQAPGKGLEWVAVISYDGSNKYYADSVKGRFTISRDNSKNTLYLQMNSLRAEDTAVYYCARPQGGNYYYYGMDVWGQGTTVTVSS
VL: DIQMTQSPSSVSASVGDRVTITCRASQGISSWLAWYQQKPGKAPKLLIYAASSLQSGVPSRFSGSGSGTDFTLTISSLQPEDFATYYCQQANSFPLTFGGGTKVEIK
B10: antibody 568 (antibody, V domains shown)
VH: EVQLVESGGVVVQPGGSLRLSCAASGFTFDDYAMHWVRQAPGKGLEWVSLISWDGGSTYYADSVKGRFTISRDNSKNSLYLQMNSLRAEDTALYYCAKDIGYSSTTTEVGWFDPWGQGTLVTVSS
VL: DIQMTQSPSSVSASVGDRVTITCRASQGISSWLAWYQQKPGKAPKLLIYAASSLQSGVPSRFSGSGSGTDFTLTISSLQPEDFATYYCQQANSFPLTFGGGTKVEIK
B11: anti-SARS-CoV-2 antibody 469 (antibody, V domains shown)
VH: QVQLVESGGGVVQPGRSLRLSCAASGFTFSSYGMHWVRQAPGKGLEWVAVIWYDGSNKYYADSVKGRFTISRDNSKNTLYLQMNSLRAEDTAVYYCARDLLSVGWSFDYWGQGTLVTVSS
VL: not shown
B12: anti-SARS-CoV-2 antibody 455 (antibody, V domains shown)
VH: QVQLVQSGAEVKKPGSSVKVSCKASGGTFSSYAISWVRQAPGQGLEWMGRIIPILGIANYAQKFQGRVTITADKSTSTAYMELSSLRSEDTAVYYCARDSIVVPAAIISGYYYYGMDVWGQGTTVTVSS
VL: QSVLTQPPSVSAAPGQKVTISCSGSSSNIGNNYVSWYQQLPGTAPKLLIYDNNKRPSGIPDRFSGSKSGTSATLGITGLQTGDEADYYCGTWDSSLSAGRVFGGGTKLTVL
B13: antibody 304 (antibody, V domains shown)
VH: EVQLLESGGGLVQPGGSLRLSCAASGFTFSTYAMSWVRQAPGKGLEWVSAISGSGGSTYYADSVKGRFTISRDNSKNTLYLQMNSLRAEDTAVYYCASGYSPDYWGQGTLVTVSS
VL: AIQMTQSPSSLSASVGDRVTITCRASQGIRNDLGWYQQKPGKAPKLLIYAASSLQSGVPSRFSGSGSGTDFTLTISSLQPEDFATYYCLQDYNYPRTFGQGTKVEIK
B14: anti-SARS-CoV-2 antibody 461 (antibody, V domains shown)
VH: EVQLVESGGGLVKPGGSLRLSCAASGFTFSSYSMNWVRQAPGKGLEWVSSISSSSSYIYYADSVKGRFTISRDNAKNSLYLQMNSLRAEDTAVYYCASNPAAGQEAYYYYGMDVWGQGTTVTVSS
VL: not shown
B15: antibody 291 (antibody, V domains shown)
VH: QVQLVESGGGVVQPGRSLRLSCAASGFTFSSYAMHWVRQAPGKGLEWVAVISYDGSNKYYADSVKGRFTISRDNSKNTLYLQMNSLRAEDTAVYYCARASGGSYFGGMDVWGQGTTVTVSS
VL: QSALTQPASVSGSPGQSITISCTGTSSDVGGYNYVSWYQQHPGKAPKLMIYEVSNRPSGVSNRFSGSKSGNTASLTISGLQAEDEADYYCSSYTSSSTLYVFGTGTKVTVL
B16: antibody 258 (antibody, V domains shown)
VH: QVQLQESGPGLVKPSETLSLTCTVSGGSISSYYWSWIRQPAGKGLEWIGRIYTSGSTNYNPSLKSRVTMSVDTSKNQFSLKLSSVTAADTAVYYCAAGYGSIDYWGQGTLVTVSS
VL: not shown
B17: antibody 570 (antibody, V domains shown)
VH: QVQLQESGPGLVKPSQTLSLTCTVSGGSISSGSYYWSWIRQPAGKGLEWIGRIYTSGSTNYNPSLKSRVTISVDTSKNQFSLKLSSVTAADTAVYYCAREGQWLYRFDYWGQGTLVTVSS
VL: not shown

Experiments:
[1] = molecular target: T1, SARS-CoV-2 spike (S) protein, full length, wild type (SARS-CoV-2, UniProt P0DTC2 14-1208); experiment: multiplexed bead assay, flow cytometry
[2] = molecular target: T1, SARS-CoV-2 spike (S) protein, full …; experiment: multiplexed bead assay, flow cytometry; remark: listed apart in the source
[3] = molecular target: T1, SARS-CoV-2 spike (S) protein, full …; experiment: multiplexed bead assay, flow cytometry; remark: listed apart in the source
[4] = molecular target: T2, full-length trimeric SARS-CoV spike protein (SARS-CoV, UniProt P59594 14-1190); experiment: multiplexed bead assay, flow cytometry
[5] = molecular target: T2, full-length trimeric SARS-CoV spike …; experiment: multiplexed bead assay, flow cytometry; remark: listed apart in the source
[6] = molecular target: T3, SARS-CoV spike protein (full-length trimeric, conjugated to optically encoded beads) (SARS-CoV, UniProt P59594 14-1190); experiment: multiplexed bead assay, flow cytometry, SARS-CoV spike on beads
[7] = molecular target: T3, SARS-CoV spike protein (full-length …); experiment: as above; remark: listed apart in the source

Row | Binder | median fluorescence fold over isotype [1] [fold over isotype] | median fluorescence fold over isotype [2] [fold over isotype] | median fluorescence fold over isotype [3] [fold over isotype] | median fluorescence intensity, fold over isotype control [4] [fold over isotype] | median fluorescence intensity, fold over isotype control [5] [fold over isotype] | fold over isotype control (median fluorescence intensity) [6] [fold over isotype] | fold over isotype control (median fluorescence intensity) [7] [fold over isotype]
1 | B1 | 1890 | 818 | 1150 | – | – | – | –
2 | B2 | 219 | 319 | 56.5 | – | – | – | –
3 | B3 | 1160 | 171 | 359 | – | – | – | –
4 | B4 | – | – | – | 48.3 | 20.8 | – | –
5 | B5 | 1010 | 335 | 381 | – | – | – | –
6 | B6 | 98.3 | 57.4 | 22.3 | – | – | – | –
7 | B7 | 872 | 587 | 369 | – | – | – | –
8 | B8 | 724 | 378 | 215 | – | – | – | –
9 | B9 | – | – | – | – | – | 8.45 | 28
10 | B10 | – | – | – | – | – | 1.07 | 0.99
11 | B11 | 730 | 241 | 125 | – | – | – | –
12 | B12 | 534 | 333 | 175 | – | – | – | –
13 | B13 | – | – | – | 1.13 | 1.09 | – | –
14 | B14 | 1760 | 763 | 1010 | – | – | – | –
15 | B15 | – | – | – | 58.8 | 31.3 | – | –
16 | B16 | – | – | – | 84.8 | 42.1 | – | –
17 | B17 | – | – | – | – | – | 2.42 | 6.92
